Test results reported in publication PMC8205227 (ACS Infectious Diseases, 2021).

System: Mtb
Assay: Mycobacterium tuberculosis compound uptake (intracellular accumulation)
Assay type: cell-based
Settings: 5 μM and 50 μM, 24 h

SMILES | Intracellular abundance compared with 2b | Intracellular accumulation in Mtb
Cc1nn(-c2ccccc2)c(O)c1Sc1nc2cc(Cl)ccc2o1 [Compound 1f, 4-(5-Chloro-1,3-benzoxazol-2-yl)sulfanyl-5-methyl-2-phenyl-pyrazol-3-ol] | substantially greater than 2b | accumulate intracellularly in Mtb in a dose-dependent manner
O=c1cc(-c2ccc(O)c(O)c2)oc2cc(O)c(O)cc12 [Compound 2b, reference compound] | – | accumulate intracellularly in Mtb in a dose-dependent manner
